{"source": "paper PMC7232442", "about": "“Biofilm Eradication by Symmetrical Selenoesters for Food-Borne Pathogens” (Microorganisms, 2020)"}
{"test_system": "S. aureus MRSA", "assay": "Biofilm formation using crystal violet", "type": "cell-based, Staphylococcus aureus", "conditions": "½ MIC, 48 h, non-treated 1.3 ± 0.1 AU", "method": "The anti-biofilm effect of the tested compounds against S. aureus strains and wild-type S. Typhimurium SE01 was measured using crystal violet (CV; 0.1% (v/v)). This dye is used to detect the total biofilm biomass formed. Overnight cultures were diluted to OD of 0.1 at 600 nm in TSB medium. Then, the bacterial cultures were added to 96-well microtiter plates and the compounds were added at ½ MIC concentration. The final volume was 200 μL in each well. The microtiter plates were incubated at 30 °C for 48 h with gentle agitation (100 rpm). After the incubation period, TSB medium was discarded, and the plates were washed with tap water to remove unattached cells. Then 200 μL crystal violet was added to the wells and incubated for 15 min at room temperature. Then, CV was removed from the wells and the plates were washed again with tap water, and 200 μL of 70% ethanol was added to the wells. Finally, the biofilm formation was determined by measuring the OD at 600 nm using Multiscan EX ELISA plate reader (Thermo Labsystems, Cheshire, WA, USA). The anti-biofilm effect of compounds was expressed in the percentage (%) of decrease in biofilm formation.", "units": {"Biofilm absorbance (AU)": "AU"}}
{"molecule": "N#CC[Se]C(=O)c1ccc(C(=O)[Se]CC#N)cc1", "note": "[Se-C1]", "Biofilm absorbance (AU)": "0.72 ± 0.15"}
{"molecule": "COC(=O)C[Se]C(=O)c1cc(C(=O)[Se]CC(=O)OC)cc(C(=O)[Se]CC(=O)OC)c1", "note": "[Se-E3]", "Biofilm absorbance (AU)": "0.32 ± 0.07"}
{"molecule": "CC(=O)C[Se]C(=O)c1ccc(C(=O)[Se]CC(C)=O)cc1", "note": "[Se-K1]", "Biofilm absorbance (AU)": "0.45 ± 0.17"}
{"molecule": "CC(=O)C[Se]C(=O)c1cc(C(=O)[Se]CC(C)=O)cc(C(=O)[Se]CC(C)=O)c1", "note": "[Se-K3]", "Biofilm absorbance (AU)": "0.16 ± 0.06"}
